From PMC11242183

These sequences were tested against FlaK (MBP fusion) (Plesiomonas shigelloides) (UniProt R8AUG0) (assay: EMSA). Conditions: recombinant protein; protein details: MBP (pMAL-c5X); probe letters rebuilt from the primers and the genome.
“AACGGCGGTAAAGTGATTGGCTTTGATGACCTCGGCGTGCCCGAGGATGTGGCGTTTGCACCAGAAGCCCGTCACGACGATTTACCGTTTCAAGGCGTGGAAAATGACAACTTCCAGCAGGCGCTGGCCGATGCCATTCGCAGCCTGCCGGAGCGCGAAGCCCTCGTGTTGTCACTGTATTACGATGAAGAATTGAATTTAAAAGAAATTGGCGCCGTACTTGGCGTAAGCGAATCGCGGATCAGCCAGATTCTGAGTCAGACGATGCACCGTCTGCGGGCTAAGCTGCATGCTTGGTCAGCCGTATAAGAAGCG (double strand) [cheY promoter]”: binds.
“GCAAGCTGGCATCTCTGTACTGTCTCAGGCAAACCAGACTCCATCCATGATCATGGGTCTGCTGCGTTAATTACGCCTGATTACGCATAGGTTTTGCCTTGTGATAACCGATGTTGGTTACGCAAAGGAAAACTCGCAATCCAAAAAGGGGCCGACTGGCCCCTTTTTACTGAGTTTTGTTGTTCTTCTTCGCGGATGTGATGGTGAAGGGGCAGAGCAAAGTGCAGTTCTTACGCGCCAATAGCATTCTGCTCTATTGGCTGTGAATTGACTGTTTAATGGCATTTTTCTTGCATCATTTTTTTTTGCATTTAAAGCGTAGCGCATAGCATTTTGCGTCCGAGAGATAAGTACGCTCGGTGGCCGCGCGGTAGACAGAGGATAG (double strand) [flhA promoter]”: binds.
“GAAGTTTGAGACACGGAGCCGGCACTGCCAGCGGCGGGTGGCGCGGCGGGAAGAAGAACGGATTGTGGCATCTCAACCTTCCTTAGGATAATTAGTCATGCAGGGAACAGAGCGCGGCTGACCGGCCAAGCAAAATGCGGCGCAGATCAAATCGCGTCAATTACTCAACCATATGAGCAAAAAGCACGCCAACAAATTGACATCCTGCCAAGATGCTTGCGGCTAAGATACTTGCGTCAATCATATCCGTGCGAATCACACCAGTGCGCTTTAGCACGCTACGTCACTCAACGCAGTTATCTGCTGCATGCGGATTAACGCTGAGTTTGTAAACGGCGCAGCAA (double strand) [fliK promoter]”: binds.
“GCAACGTCTTACCGGGTCTTCTCGACCGCAAAATTCTGTGTCTGTAATAAGTAAGGTCTGCGTAATGCAAATTCTCTGCCAGTTTTTGAGCAAAACCGCGTCAGTGTTAAGGCGGTGAGGGCGTGAGCTGGGGCTGTAAAGGACGGTAATTGGCGTGTCATTTTTTTGACTTAAGTCGCAAAGGTGACTATTGGACATATATTGACGCGCGGATTGATTGACAAGTGACAAAGAACAGTCAGAGCGCTTGGCCAGTGTTGCTCAATTAATGGCACGTTACTTGCTTTTGAACTGCGCGTAAAACCGTCCGCGTCATTGTGGCGGTTTCCTTGTTTATCAGAGCCTTGTTCATCAGAGGATTTCGGAGAGTCAGCGTCATGTATCACACAGC (double strand) [fliE promoter]”: binds.

These sequences were tested on T1, FlaM (MBP fusion) (Plesiomonas shigelloides) (assay: EMSA). Conditions: recombinant protein; residues 1-568; protein details: MBP (pMAL-c5X); probe letters rebuilt from the primers and the genome.
T1 sequence (looked up): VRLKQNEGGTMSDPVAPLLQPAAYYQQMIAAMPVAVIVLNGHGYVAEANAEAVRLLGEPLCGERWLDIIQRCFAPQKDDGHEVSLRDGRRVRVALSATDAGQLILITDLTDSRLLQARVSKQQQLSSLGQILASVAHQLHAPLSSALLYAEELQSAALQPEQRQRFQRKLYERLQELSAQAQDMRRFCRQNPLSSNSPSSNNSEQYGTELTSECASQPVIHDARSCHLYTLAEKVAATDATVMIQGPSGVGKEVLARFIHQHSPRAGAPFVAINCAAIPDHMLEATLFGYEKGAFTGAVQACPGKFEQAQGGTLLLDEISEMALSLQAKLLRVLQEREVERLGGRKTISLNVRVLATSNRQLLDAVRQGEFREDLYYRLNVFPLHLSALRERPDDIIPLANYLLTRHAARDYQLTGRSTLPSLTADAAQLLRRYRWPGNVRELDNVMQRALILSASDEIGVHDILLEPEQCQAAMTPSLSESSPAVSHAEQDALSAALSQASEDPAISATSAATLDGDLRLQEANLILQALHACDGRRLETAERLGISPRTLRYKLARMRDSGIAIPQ
“GCCGGAGTGTCAATGTCATTACGTGAACCTGAATCGTGATTGCCCGCGGCAGTGGCTGCTGCCGGTGATAACTGTACCGGTTGGCGATGTTATGAGTAATGCAATTAATGTTCCGTTTCATCCGGTTCAAGTTTTTACCGTAACGGGCGATAAGATAACAGAGAATGTGACTGGGACGCAGAACGTGAAGCACATGAAGACATTACTGCCGCTGGCGGCACTCTCCGGGCTGTTATTGACCGGCTGTGCCGGTAATCAACCCTCGGCAGATCAGCCGTATGTTATGGACAAGAATCAGGTTCAGGTGTTGCCACGCCACAGTCTGGACTTTTTTGTCGACGCGATGGCGCGTCAGTTGGT (double strand) [flgT promoter]”: binds.
“AGCACTTAGACGGATCATCGACCGGCTTACCACCAATCGCCAAGCTCATGTCGATCACCGAAATGGTCTGACCCCGGATATGCGCGATGCCTTTTACGATCGGATTAAGATTCGGTAGCATGGTCAGGCGCGGGCACTGCAGCACTTCGCGTACTTTAAACACGTTAATGCCGTAACGCTGTGACCCGTTGAGTTTAAATGTCAGCAGCTCCAGTCGGTTCTGTCCGACTAATTGTGTGCGCTGATTGACCGAATCCAGAATTCCCGCCATAACGTGCTACTCCCAGGGGTATTTAAAGTGTTTCTTATAACTCGTATACCCCTTAGGATATCAGAGGTATTTTGCATAACAGGAGACGTT (double strand) [flgA promoter]”: binds.
“GTAATGACATTGACACTCCGGCCGCGTGCCACCTGTCTGGCCACCGTGCTTATGCTGGCCAGCAGCTTATATACAAGCAACCTTTATGCCGCTTGGTATCAGACCACCGTCAGTATTCCGACGCAGGCGGGTAGCGAGAGCCAATTGCGCTCGCTCGCGCTCAGTGATGCCAGCGGTCAGCTGCTCGGTTATGCCGGGGTGTCGATGAACTATCAGCAACCGCTGGTCGCATCGCTACTCTCCGGCGATAAAGACGGCCAGACCATTCGTTACGCCGCCGGCAGCCCCGTACATGCAGCAACGGTGGTCAGTAGCGCTACCCAGAATGGCCGCTTTACCCTAACGTTACG (double strand) [flgO promoter]”: binds.

For some of these results: Where a protein sequence is shown, tags need not be part of it. Construct, isoform or probe ends are uncertain for at least one entry.
